Test results reported in publication PMC9170159 (Proceedings of the National Academy of Sciences of the …, 2022).

Key:
[1] = biological target: S1 subunit of the SARS-CoV spike protein (SARS-CoV (2003), strain not named, UniProt P59594); test: ELISA; monoclonal phage ELISA; […] absorbance at 450 nm; details: one partner purified
[2] = biological target: T1, SARS-CoV-2 (Wuhan-Hu-1) spike receptor-binding domain, His-tagged (SARS-CoV-2, UniProt P0DTC2 319-541); test: BLI; Octet; […] monomeric VHH at 12.5 nM; […]; details: both partners purified
[3] = biological target: T1, SARS-CoV-2 (Wuhan-Hu-1) spike …; test: BLI; Octet; […] monomeric VHH at 100 nM; […]; details: both partners purified
[4] = biological target: T1, SARS-CoV-2 (Wuhan-Hu-1) spike …; test: BLI; Octet; […] monomeric VHH at 50 nM; […]; details: both partners purified
[5] = biological target: T1, SARS-CoV-2 (Wuhan-Hu-1) spike …; test: BLI; Octet; […] monomeric VHH at 25 nM; […]; details: both partners purified

Row | Binder | binding result [1] | Kd [2] [nM] | Kd [3] [nM] | Kd [4] [nM] | Kd [5] [nM]
1 | 1B5 VHH displayed on phage (VHH) VHH: DVQLVESGGGSVQAGGSLRLSCTGSRYTYSTYCMGWFRQAPGKEEEAVAIINSGGGEPYYGDSVKGRFTISQDRAKNTVYLQMDGLQPDDTAIYYCVAADSHNSRCYLGRSYVNYWGQGTQVTVSS | binds |  |  |  | 
2 | NCI-CoV-8A2 VHH (monomeric, six-histidine tag) (VHH) VHH: AVQLVDSGGGSVQAGGSLRLSCAASGYTYSICTMGWYRQAPGEGLEWVSGINADGSNTHYTDSVKGRFTISRDNAKKTLYLQMNSLKPEDTAIYYCAAHGTYDKYAPCGGFAGTYTYWGQGTQVTVSS |  | 1.3 | 0.241 | 0.764 | 0.805
